Anti-infective test results gathered from many reports (values: NIAID ChemDB through PubChem).

Shared fields: whole-cell or culture tests; species: Mycobacterium avium intracellulare

A number after MIC or MFC names an inhibition level or a share of isolates. ECn: concentration that inhibits the pathogen or its effect by n%. Blank or dashed fields: not listed here. Rows are shuffled and stem from different studies.

CC1COc2c(N3CCN(C)CC3)c(F)cc3c(=O)c(C(=O)O)cn1c23 ; endpoint: MIC50 ; strain: 31 strains ; result: 25 µg/mL
COc1cc(NC(C)CCCN)c2nc(C(C)(C)C)ccc2c1Oc1cccc(C(F)(F)F)c1 ; endpoint: MBC ; result: 5 µg/mL
CSc1nc(N)c2c(n1)NC(c1ccc(C(F)(F)F)cc1)CC(c1ccc3c(c1)OCO3)=N2 ; endpoint: MIC ; conditions: clinical isolate ; strain: MNT1408 ; method: MTT / broth dilution / absorbance ; result: >32 µg/mL
CCCCCCCCCCO/N=C1\[C@H](C)CC(C)(O)[C@H](O[C@@H]2O[C@H](C)C[C@H](N(C)C)[C@H]2O)[C@@H](C)[C@H](OC2C[C@@](C)(OC)[C@@H](O)[C@H](C)O2)[C@@H](C)C(=O)O[C@H](CC)[C@@](C)(O)[C@H](O)[C@H]1C ; endpoint: MIC ; strain: 20066 (clarithromycin-susceptible) ; result: 6.25 µg/mL
CC1COc2c(N3CCN(C)CC3)c(F)cc3c(=O)c(C(=O)O)cn1c23 ; endpoint: MIC50 ; strain: 31 strains ; result: 25 µg/mL
Cc1c(F)c(N2CCNC(C)C2)cc2c1c(=O)c(C(=O)O)cn2C1CC1 ; endpoint: MIC50 ; strain: 31 strains ; result: 12.5 µg/mL
NNC(=O)c1ccncc1 ; endpoint: MIC ; conditions: clinical isolate ; strain: MNT1408 ; method: MTT / broth dilution / absorbance ; result: >0.5 µg/mL
CO[C@H]1/C=C/O[C@@]2(C)Oc3c(C)c(O)c4c(=O)c(c5oc6cc(N7CCN(CC(C)C)CC7)cc(=O)c6nc5c4c3=C2O)NC(=O)/C(C)=C\C=C\[C@H](C)[C@H](O)[C@@H](C)[C@@H](O)[C@@H](C)[C@H](OC(C)=O)[C@@H]1C ; endpoint: MBC ; strain: N-260 ; result: 1 µg/mL
CN[C@@H]1[C@H](O[C@H]2[C@H](O[C@H]3[C@H](O)[C@@H](O)[C@H](N=C(N)N)[C@@H](O)[C@@H]3N=C(N)N)O[C@@H](C)[C@]2(O)C=O)O[C@@H](CO)[C@H](O)[C@H]1O ; endpoint: MIC ; strain: N-475 (HIV-) ; result: 0.25 µg/mL
CCC(C)C(=O)Oc1ccc(OC)cc1C1OC1C ; endpoint: MBC ; strain: ATCC 19709 ; result: >20 µg/mL
CN1CCN(c2c(F)cc3c(=O)c(C(=O)O)cn(CCF)c3c2F)CC1 ; endpoint: MIC50 ; strain: N-260 ; result: 50 µg/mL
C=CCc1ccc(OC(=O)/C(C)=C/C)cc1 ; endpoint: MBC ; strain: ATCC 19709 ; result: >20 µg/mL
CCCC(=O)O[C@H]1[C@H](C)[C@@H](O[C@@H]2O[C@H](C)C[C@H](N(C)C)[C@H]2O)C(C)(O)C[C@@H](C)/C(=N\OCCCOc2ccccc2)[C@H](C)[C@@H](O)[C@](C)(O)[C@@H](CC)OC(=O)[C@@H]1C ; endpoint: MIC ; strain: 20066 (clarithromycin-susceptible) ; result: 6.25 µg/mL
C[C@H]1COc2c(N3CCN(C)CC3)c(F)cc3c(=O)c(C(=O)O)cn1c23 ; endpoint: MIC50 ; strain: 31 strains ; result: 25 µg/mL
C[C@@H]1CN(c2c(F)c(N)c3c(=O)c(C(=O)O)cn(C4CC4)c3c2F)C[C@H](C)N1 ; endpoint: Median MIC50 ; strain: 292 strains ; result: 1 µg/mL
CO[C@H]1/C=C/O[C@@]2(C)Oc3c(C)c(O)c4c(=O)c(c5oc6cc(N7CCN(CC(C)C)CC7)cc(=O)c6nc5c4c3=C2O)NC(=O)/C(C)=C\C=C\[C@H](C)[C@H](O)[C@@H](C)[C@@H](O)[C@@H](C)[C@H](OC(C)=O)[C@@H]1C ; endpoint: MIC ; strain: N-919 (HIV-) ; result: ≤0.0125 µg/mL
NC(=O)c1cnccn1 ; endpoint: MBC ; strain: ATCC 13950 ; result: >200 µg/mL
COc1c(O)c2c(=O)cc(OC)c3c4c(OC)cc(=O)c5c(O)c(OC)c6c(c(c1CC(C)=C6OC(C)=O)c23)c54 ; endpoint: EC50 ; result: 22.5 µg/mL
CO[C@H]1/C=C/O[C@@]2(C)Oc3c(C)c(O)c4c(O)c(c(/C=N/N5CCN(C6CCCC6)CC5)c(O)c4c3C2=O)NC(=O)/C(C)=C\C=C\[C@H](C)[C@H](O)[C@@H](C)[C@@H](O)[C@@H](C)[C@H](OC(C)=O)[C@@H]1C ; endpoint: MIC ; strain: AMT ; result: 0.5 µg/mL
C[C@@H]1CN(c2c(F)c(N)c3c(=O)c(C(=O)O)cn(C4CC4)c3c2F)C[C@H](C)N1 ; endpoint: MIC ; strain: N-481 (HIV-) ; result: 16 µg/mL
COc1ccc(C2=Nc3c(N)nc(N)nc3NC(c3ccc4c(c3)OCO4)C2)cc1 ; endpoint: MIC ; conditions: clinical isolate ; strain: MNT1408 ; method: MTT / broth dilution / absorbance ; result: >32 µg/mL
CC[C@H]1OC(=O)[C@H](C)[C@@H](O[C@H]2C[C@@](C)(OC)[C@@H](OC(C)=O)[C@H](C)O2)[C@H](C)[C@@H](O[C@@H]2O[C@H](C)C[C@H](N(C)C)[C@H]2O)C(C)(O)C[C@@H](C)/C(=N\OCCCCOc2ccccc2)[C@H](C)[C@@H](O)[C@]1(C)O ; endpoint: MIC ; strain: 20066 (clarithromycin-susceptible) ; result: 1.56 µg/mL
CC[C@H]1OC(=O)[C@H](C)[C@@H](O[C@H]2C[C@@](C)(OC)[C@@H](O)[C@H](C)O2)[C@H](C)[C@@H](O[C@@H]2O[C@H](C)C[C@H](N(C)C)[C@H]2O)[C@](C)(OC)C[C@@H](C)C(=O)[C@H](C)[C@@H](O)[C@]1(C)O ; endpoint: MIC ; strain: N-481 (HIV-) ; result: 4 µg/mL
CC[C@H]1OC(=O)[C@H](C)[C@@H](O[C@H]2C[C@@](C)(OC)[C@@H](OC(C)=O)[C@H](C)O2)[C@H](C)[C@@H](O[C@@H]2O[C@H](C)C[C@H](N(C)C)[C@H]2O)C(C)(O)C[C@@H](C)/C(=N\OCCc2cccs2)[C@H](C)[C@@H](O)[C@]1(C)O ; endpoint: MIC ; strain: 20066 (clarithromycin-susceptible) ; result: 3.13 µg/mL
Nc1nc(N)c2c(n1)NC(c1ccc3c(c1)OCO3)CC(c1ccc(Cl)cc1)=N2 ; endpoint: MIC ; conditions: clinical isolate ; strain: MNT1408 ; method: MTT / broth dilution / absorbance ; result: >32 µg/mL
CC[C@H]1OC(=O)[C@H](C)[C@@H](O[C@H]2C[C@@](C)(OC)[C@@H](OC(C)=O)[C@H](C)O2)[C@H](C)[C@@H](O[C@@H]2O[C@H](C)C[C@H](N(C)C)[C@H]2OC(=O)NNCCc2ccccc2)C(C)(O)C[C@@H](C)/C(=N\OCCCC2CCCCC2)[C@H](C)[C@@H](O)[C@]1(C)O ; endpoint: MIC ; strain: 20066 (clarithromycin-susceptible) ; result: 0.78 µg/mL
CC1COc2c(N3CCN(C)CC3)c(F)cc3c(=O)c(C(=O)O)cn1c23 ; endpoint: MIC50 ; strain: 31 strains ; result: 50 µg/mL
C/C=C(\C)C(=O)Oc1ccc([C@H]2O[C@@H]2C)cc1 ; endpoint: EC50 ; result: 1.29 µg/mL
CCCCCCCCO/N=C1\[C@H](C)CC(C)(O)[C@H](O[C@@H]2O[C@H](C)C[C@H](N(C)C)[C@H]2O)[C@@H](C)[C@H](O[C@H]2C[C@@](C)(OC)[C@@H](OC(C)=O)[C@H](C)O2)[C@@H](C)C(=O)O[C@H](CC)[C@@](C)(O)[C@H](O)[C@H]1C ; endpoint: MIC ; strain: 20066 (clarithromycin-susceptible) ; result: 1.56 µg/mL

The last 3 rows once more:

compound,endpoint,conditions,strain,method,result
CC1COc2c(N3CCN(C)CC3)c(F)cc3c(=O)c(C(=O)O)cn1c23,MIC50,,31 strains,,50 µg/mL
C/C=C(\C)C(=O)Oc1ccc([C@H]2O[C@@H]2C)cc1,EC50,,,,1.29 µg/mL
CCCCCCCCO/N=C1\[C@H](C)CC(C)(O)[C@H](O[C@@H]2O[C@H](C)C[C@H](N(C)C)[C@H]2O)[C@@H](C)[C@H](O[C@H]2C[C@@](C)(OC)[C@@H](OC(C)=O)[C@H](C)O2)[C@@H](C)C(=O)O[C@H](CC)[C@@](C)(O)[C@H](O)[C@H]1C,MIC,,20066 (clarithromycin-susceptible),,1.56 µg/mL